# PubChem BioAssay AID1224833 | University of Georgia, 2016
# Assay: 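Host factors restraining rotavirus as candidate antiviral genes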 (primary screen)
# Cell system: monkey MA104 kidney cells
# Knock-down reagent: siRNA pool against human genes, 50 nM
# Time to read-out: 48 h knock-down before infection; read 24 h after infection
# Challenge: infection with rotavirus strain RV3 two days after transfection; infectious dose for this stage not given
# Read-out: 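Rotavirus antigen per well by fluorescent immunoassay, normalised to non-targeting control wells on each plate and given as a standard z-score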
# Scale: z-score vs non-targeting control: higher = more rotavirus replication than with non-targeting control
# Hit rule: In these data the active calls have z-score vs non-targeting control at about -1 or lower, or at about 1 or higher
# Calls: active = z-score beyond 1 either way; inactive = z-score within 1 of zero
# Shown is one part, drawn at random, of about 12,000 reagents. Of all reagents, about 5,600 (46%) were called active. 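Active calls cover z-scores past 1 in both directions, so they include lowered as well as raised rotavirus replication.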 A number with no mark means an inactive call.
z-score vs non-targeting control,gene knocked down
-0.308,GOLGA3 (GeneID 2802)
-1.56 (active),RPAP1 (GeneID 26015)
-0.678,CDH9 (GeneID 1007)
-1.08 (active),PEX1 (GeneID 5189)
-0.0788,MAP1LC3A (GeneID 84557)
3.97 (active),COX20 (GeneID 116228)
1.02 (active),DZANK1 (GeneID 55184)
-0.441,PSG3 (GeneID 5671)
0.844,CRYAA (GeneID 1409)
-0.907,CERS5 (GeneID 91012)
1.11 (active),C16orf46 (GeneID 123775)
-0.2,GLIPR1 (GeneID 11010)
-1.47 (active),LMX1B (GeneID 4010)
-1.14 (active),CTAG2 (GeneID 30848)
-0.553,HID1 (GeneID 283987)
-1.38 (active),ANKRD20A1 (GeneID 84210)
1.2 (active),LINC02913 (GeneID 414318)
-1.84 (active),LAMB1 (GeneID 3912)
-2.42 (active),KHNYN (GeneID 23351)
1.14 (active),HOXD9 (GeneID 3235)
0.674,H4C6 (GeneID 8361)
-0.82,SHISA3 (GeneID 152573)
-1.42 (active),SAXO6 (GeneID 56890)
-0.694,CCDC77 (GeneID 84318)
-2.41 (active),DDX31 (GeneID 64794)
0.261,DDRGK1 (GeneID 65992)
-2.53 (active),TBC1D19 (GeneID 55296)
-0.944,EAF1 (GeneID 85403)
-0.0897,USP6NL (GeneID 9712)
-0.235,NPTX2 (GeneID 4885)
1.91 (active),ZNF260 (GeneID 339324)
1.5 (active),LYG2 (GeneID 254773)
-2.32 (active),RER1 (GeneID 11079)
-0.528,USE1 (GeneID 55850)
-0.951,USB1 (GeneID 79650)
1.58 (active),YJU2 (GeneID 55702)
1.09 (active),SLC7A9 (GeneID 11136)
-0.715,SLC38A4 (GeneID 55089)
-1.3 (active),OR4A47 (GeneID 403253)
-1.32 (active),SEC24A (GeneID 10802)
0.457,PARP15 (GeneID 165631)
-1.15 (active),ADD1 (GeneID 118)
-0.222,ATF7IP2 (GeneID 80063)
-1.1 (active),CALR (GeneID 811)
-0.561,ADH7 (GeneID 131)
-0.649,PGRMC1 (GeneID 10857)
-0.634,SEC14L3 (GeneID 266629)
-0.952,BRF1 (GeneID 2972)
-0.684,OSR2 (GeneID 116039)
1.68 (active),CFAP184 (GeneID 257236)
0.269,STON1 (GeneID 11037)
1.06 (active),ZNF444 (GeneID 55311)
-3.52 (active),CYP21A2 (GeneID 1589)
2.25 (active),POU4F1 (GeneID 5457)
-0.0769,SLCO1B3 (GeneID 28234)
-0.488,CNIH3 (GeneID 149111)
-0.0438,TAS2R1 (GeneID 50834)
-1.68 (active),IQCC (GeneID 55721)
-0.705,OR1J4 (GeneID 26219)
-0.54,HS6ST1 (GeneID 9394)
-1.43 (active),ARL14 (GeneID 80117)
-0.927,ICA1 (GeneID 3382)
0.714,ARMC12 (GeneID 221481)
-0.701,AMACR (GeneID 23600)
-0.973,FEZF2 (GeneID 55079)
-0.139,ZNF550 (GeneID 162972)
-1.66 (active),ERG (GeneID 2078)
-1.79 (active),NECAB3 (GeneID 63941)
0.231,CADPS2 (GeneID 93664)
-1.01 (active),BANP (GeneID 54971)
-1.39 (active),PLXDC1 (GeneID 57125)
-0.563,PPIH (GeneID 10465)
-0.792,SMC4 (GeneID 10051)
-1.1 (active),EIF4G2 (GeneID 1982)
-0.914,SPATA31H1 (GeneID 84226)
-0.742,A1BG (GeneID 1)
-1.78 (active),CRACR2B (GeneID 283229)
1.19 (active),OR52N4 (GeneID 390072)
-2.18 (active),ARPC1B (GeneID 10095)
0.498,AGBL1 (GeneID 123624)
0.21,OR52E2 (GeneID 119678)
-0.159,OSGIN2 (GeneID 734)
-0.911,RAB2A (GeneID 5862)
1.24 (active),AQP6 (GeneID 363)
0.357,NUMB (GeneID 8650)
-0.446,PRRG1 (GeneID 5638)
-0.921,CDCP1 (GeneID 64866)
-0.225,PLA2G4B (GeneID 100137049)
-0.479,CSTF2 (GeneID 1478)
-0.569,FAM186B (GeneID 84070)
0.695,UBQLN3 (GeneID 50613)
-2.5 (active),NONO (GeneID 4841)
1.28 (active),LRCH4 (GeneID 4034)
2.09 (active),FSTL5 (GeneID 56884)
0.603,LAMTOR2 (GeneID 28956)
0.0387,DHFR2 (GeneID 200895)
1.59 (active),SOX15 (GeneID 6665)
-1.18 (active),POPDC2 (GeneID 64091)
-1.7 (active),ATP7B (GeneID 540)
3.57 (active),SELENOM (GeneID 140606)
-1.12 (active),NINL (GeneID 22981)
-0.632,LDB1 (GeneID 8861)
-1.15 (active),MINDY2 (GeneID 54629)
-0.145,DMXL2 (GeneID 23312)
2.27 (active),ADGRB2 (GeneID 576)
-0.694,MRPS15 (GeneID 64960)
0.294,ILDR1 (GeneID 286676)
1.35 (active),LHFPL5 (GeneID 222662)
-0.637,NRSN1 (GeneID 140767)
0.849,MAIP1 (GeneID 79568)
1.06 (active),SLC30A3 (GeneID 7781)
0.805,CAP1 (GeneID 10487)
-1.98 (active),ZNF319 (GeneID 57567)
-0.768,DNAJA4 (GeneID 55466)
0.203,MYH3 (GeneID 4621)
-0.235,COPS7B (GeneID 64708)
-0.0915,CHCHD6 (GeneID 84303)
1.1 (active),COL4A4 (GeneID 1286)
-0.694,FCGRT (GeneID 2217)
-1.28 (active),CDH18 (GeneID 1016)
-1.73 (active),R3HCC1L (GeneID 27291)
-1.23 (active),BHMT2 (GeneID 23743)
-0.812,EHD3 (GeneID 30845)
1.11 (active),HTR1D (GeneID 3352)
0.325,KRTAP12-2 (GeneID 353323)
0.658,SPATA31A7 (GeneID 26165)
0.0718,SELENOT (GeneID 51714)
0.888,NCSTN (GeneID 23385)
-0.313,MBTD1 (GeneID 54799)
-5.76 (active),UBC (GeneID 7316)
-0.75,ZNF74 (GeneID 7625)
-1.23 (active),SYNM (GeneID 23336)
-1.32 (active),ATOH7 (GeneID 220202)
-2.79 (active),SNX24 (GeneID 28966)
-1.1 (active),SULT6B1 (GeneID 391365)
2.45 (active),GARIN6 (GeneID 196472)
1.35 (active),NFIA (GeneID 4774)
-1.68 (active),RCAN3 (GeneID 11123)
-0.564,SAR1B (GeneID 51128)
-0.866,CA9 (GeneID 768)

Reprinted from above for reference:
z-score vs non-targeting control,gene knocked down
0.357,NUMB (GeneID 8650)
-0.446,PRRG1 (GeneID 5638)
-0.921,CDCP1 (GeneID 64866)
-0.225,PLA2G4B (GeneID 100137049)
-0.479,CSTF2 (GeneID 1478)
-0.569,FAM186B (GeneID 84070)
0.695,UBQLN3 (GeneID 50613)
-2.5 (active),NONO (GeneID 4841)
1.28 (active),LRCH4 (GeneID 4034)
2.09 (active),FSTL5 (GeneID 56884)
0.603,LAMTOR2 (GeneID 28956)
0.0387,DHFR2 (GeneID 200895)
1.59 (active),SOX15 (GeneID 6665)
-1.18 (active),POPDC2 (GeneID 64091)
-1.7 (active),ATP7B (GeneID 540)
